Compound potency records, mixed from different reports. Data source: NIAID ChemDB in PubChem.

All rows: tests on isolated targets; agent: HIV-1; protein: Integrase; endpoint: IC50

a–b is a range or a potency band. ICn: concentration for n% inhibition. Lines come from different laboratories, so protocols vary. Blank or dashed fields: not listed here.

SMILES	changes	read by	result
O=c1ccn2ccn(CCCc3cccc(Cl)c3)c(=O)c2c1O	-	ELISA	0.01–0.1 µM
CC(=O)Oc1ccc(/C=C/C(=O)Nc2cccc3c(S(=O)(=O)NCCc4ccc(Br)cc4)cccc23)cc1OC(C)=O	-	-	>100 µg/mL
CC1(C)c2nc(C(=O)NCc3ccc(F)cc3)c(O)c(=O)n2CCN1CCN1CCOCC1	-	ELISA	<10 µM
Cn1ncnc1-c1cn2c(c(O)c1=O)C(=O)N(Cc1ccc(F)c(Cl)c1)CC2	-	ELISA	<0.01 µM
O=C(/C=C/c1ccc(O)c(O)c1)Nc1cccc2c(S(=O)(=O)Nc3ccc(Cl)cc3)cccc12	-	-	20.4 µg/mL
O=c1c(-c2cccc(O)c2)cn2ccn(Cc3cccc(Cl)c3)c(=O)c2c1O	-	ELISA	<0.01 µM
CN1C(=O)[C@@H](c2cc(Cl)c(O)c(Cl)c2)NC(=O)[C@@H]2NC(=O)[C@@H](c3cc(Cl)c(O)c(Cl)c3)NC(=O)[C@H](NC(=O)C(=O)c3cc(Cl)c(O)c(Cl)c3)Cc3c[nH]c4c(cccc34)-c3cc2cc(c3O)Oc2ccc(cc2)C[C@H]1C(=O)O	-	strand transfer	0.3–0.5 µM
CC(C)Cn1c(C(=O)N(C)C)c2c(c(O)c1=O)C(=O)N(Cc1ccc(F)c(Cl)c1)CC2	-	strand transfer	<1 µM
O=C(/C=C/c1ccc(O)c2c1[C@H](C(=O)O)[C@@H](c1ccc(O)c(O)c1)O2)O[C@H](Cc1ccc(O)c(O)c1)C(=O)O	-	strand transfer	0.48 µM
O=c1c(O)c2c(=O)n(Cc3cccc(Cl)c3)ccn2c2ccccc12	-	ELISA	0.01–0.1 µM
O=C(/C=C/c1ccc(O)c(O)c1)Nc1cccc2c(S(=O)(=O)Nc3cccc([N+](=O)[O-])c3)cccc12	-	-	19.3 µg/mL
O=C(NC1CC1)c1[nH]c(=O)c(O)c2c1CCN(Cc1ccc(F)cc1)C2=O	-	strand transfer	<1 µM
N#C/C(=C(/O)C(=O)O)c1cn(Cc2ccc(F)cc2)c2ccccc12	-	strand transfer	10 µM
O=C(O)/C(O)=C/C(=O)N(Cc1ccc(Cl)cc1)Cc1ccc(Cl)cc1	-	strand transfer	<70 µM
CC(C)(C)NS(=O)(=O)c1ccccc1-c1cccc(C(=O)Nc2ccc(CCC(=O)O)cc2)c1	A128T	strand transfer / fluorescence	4.529 µM
CCN(CC)C(=O)c1c2c(c(O)c(=O)n1C)C(=O)N(Cc1ccc(F)c(Cl)c1)CC2	-	strand transfer	<1 µM
CC(=O)Oc1ccc(/C=C/C(=O)Nc2cccc3c(S(=O)(=O)Nc4ccccc4)cccc23)cc1OC(C)=O	-	-	>100 µg/mL
CN(C)C(=O)c1cc(F)ccc1CNC(=O)c1nc(N(C)S(C)(=O)=O)c2cccnc2c1O	-	strand transfer	<0.5 µM
Cn1cnc(CN2CCn3c(nc(C(=O)NCc4ccc(F)cc4)c(O)c3=O)C2(C)C)n1	-	ELISA	<10 µM
CNC(=O)c1cc(F)ccc1CNC(=O)c1nc(N2CCCN(C)S2(=O)=O)c2cccnc2c1O	-	strand transfer	<0.5 µM
Cn1c(O)c(C(=O)C(=O)O)c2ccccc21	-	strand transfer	160 µM
CN(Cc1ccc(F)cc1)C(=O)/C=C(\O)C(=O)O	-	strand transfer	<70 µM
CCN(CC)C(=O)c1[nH]c(=O)c(O)c2c1CCN(Cc1ccc(F)cc1)C2=O	-	strand transfer	<1 µM
COC(=O)C(CCCCNC(=O)/C=C/c1cc(O)c(O)c(O)c1)NC(=O)/C=C/c1cc(O)c(O)c(O)c1	-	3′ processing	2.4 µM
CC(=O)Oc1ccc(/C=C/C(=O)Nc2cccc3c(S(=O)(=O)NCCc4ccc(C)cc4)cccc23)cc1OC(C)=O	-	-	>100 µg/mL
O=C(O)/C(O)=C/C(=O)N(CCCc1ccccc1)c1ccc(Cl)cc1	-	strand transfer	<70 µM
O=C(/C=C/c1ccc(O)c(O)c1)Nc1cccc2c(S(=O)(=O)NCc3ccccc3)cccc12	-	-	8.6 µg/mL
COCC(C)(C)C(=O)c1cn2ccn(Cc3ccc(F)cc3)c(=O)c2c(O)c1=O	-	ELISA	<0.01 µM
COC(=O)c1cc(-c2cn(Cc3ccccc3)c3ccccc23)on1	-	strand transfer	>1000 µM
COC(=O)C(CCNC(=O)c1ccc(O)c(O)c1)NC(=O)c1ccc(O)c(O)c1	-	3′ processing	>10 µM
COC(=O)c1cn2ccn(Cc3cccc(Cl)c3)c(=O)c2c(O)c1=O	-	ELISA	0.01–0.1 µM
O=C(NCC(NC(=O)c1ccc(O)c(O)c1)C(=O)O)c1ccc(O)c(O)c1	-	3′ processing	>10 µM
CC(C)NC(=O)c1[nH]c(=O)c(O)c2c1CCN(Cc1ccc(F)cc1)C2=O	-	strand transfer	<1 µM
O=C(/C=C/c1ccc(O)c(O)c1)Nc1cccc2c(S(=O)(=O)Nc3ccc(Br)cc3)cccc12	-	-	19.5 µg/mL
CN(C)C(=O)Cc1cn2ccn(Cc3cccc(Cl)c3)c(=O)c2c(O)c1=O	-	ELISA	0.01–0.1 µM
CN(C)C(=O)c1cc(F)ccc1CNC(=O)c1nc(N2CCCCS2(=O)=O)c2cccnc2c1O	-	strand transfer	<0.5 µM
O=C(O)c1cc(-c2cn(Cc3ccccc3)c3ccccc23)on1	-	strand transfer	200 µM
Cc1ccc(CN(C)C(=O)/C=C(\O)C(=O)O)cc1	-	strand transfer	<70 µM
CC(C)n1c(C(=O)N(C)C)c2c(c(O)c1=O)C(=O)N(Cc1ccc(F)c(Cl)c1)CC2	-	strand transfer	<1 µM
O=C1c2c(O)c(=O)c3ccccc3n2CCN1Cc1cccc(Cl)c1	-	ELISA	0.01–0.1 µM
CC1(C)NCCn2c1nc(C(=O)NCc1ccc(F)cc1)c(O)c2=O	-	ELISA	<10 µM
CNC(=O)c1cccc(C(c2ccc(F)cc2)N(C)C(=O)/C=C(\O)C(=O)O)c1	-	strand transfer	<70 µM
COC(=O)C(CCNC(=O)/C=C/c1ccc(O)c(O)c1)NC(=O)/C=C/c1ccc(O)c(O)c1	-	3′ processing	~10 µM
CN(c1nc(C(=O)NCc2ccc(F)cc2C(N)=O)c(O)c2ncccc12)S(C)(=O)=O	-	strand transfer	<0.5 µM
CN1CCN(S(=O)(=O)N(C)C2COCCn3c2nc(C(=O)NCc2ccc(F)cc2)c(O)c3=O)CC1	-	ELISA	<10 µM
COc1cccc(CNC(=O)/C=C(\O)C(=O)O)c1	-	strand transfer	<70 µM

A second listing of 4 rows from above:

SMILES | changes | read by | result
CN(C)C(=O)c1cc(F)ccc1CNC(=O)c1nc(N(C)S(C)(=O)=O)c2cccnc2c1O | - | strand transfer | <0.5 µM
O=C(NCC(NC(=O)c1ccc(O)c(O)c1)C(=O)O)c1ccc(O)c(O)c1 | - | 3′ processing | >10 µM
CN1CCN(S(=O)(=O)N(C)C2COCCn3c2nc(C(=O)NCc2ccc(F)cc2)c(O)c3=O)CC1 | - | ELISA | <10 µM
O=C(O)/C(O)=C/C(=O)N(CCCc1ccccc1)c1ccc(Cl)cc1 | - | strand transfer | <70 µM